Measured values as given in paper PMC7287799 (Molecules, 2020).

Target: CLas IMPDHΔ98-201 (Candidatus Liberibacter asiaticus, UniProt C6XG59, DEL98-201/INS97G)
Conditions: for type of inhibition against IMP: varying IMP at fixed NAD+; for reversibility of inhibition: extended measurement time, no exponential enzyme decay observed

Structure (SMILES) | effect on CLas IMPDHΔ98-201 enzyme activity | type of inhibition against IMP | reversibility of inhibition
NC(=O)c1ncn([C@@H]2O[C@H](CO)[C@@H](O)[C@H]2O)n1 | almost no effect |  | 
S=c1[nH]cnc2nc[nH]c12 |  | uncompetitive | 
O=[N+]([O-])C(Br)(CO)CO |  | noncompetitive | reversible
O=c1c2ccccc2[se]n1-c1ccccc1 |  |  | reversible
CCN(CC)C(=S)SSC(=S)N(CC)CC |  | noncompetitive | reversible
